Results on 7 molecules are retold here after patent US20200024330A1.

What all share (assay): cell-based or functional assay
Assay [1] addresses Env of the clade C HIV-1 pseudoviruses of the cross-clade 162-pseudovirus panel (n = 27).
For assay [2], the target named is Env of the clade D HIV-1 pseudoviruses of the cross-clade 162-pseudovirus panel (n = 25).
In assay [3] the target is Env of the clade A HIV-1 pseudoviruses of the cross-clade 162-pseudovirus panel (n = 26).
Assay [4] addresses Env of the clade B HIV-1 pseudoviruses of the cross-clade 162-pseudovirus panel (n = 31).
For assay [5], the target named is Env of the clade F HIV-1 pseudoviruses of the cross-clade 162-pseudovirus panel (n = 15).
In assay [6] the target is Env of the clade G HIV-1 pseudoviruses of the cross-clade 162-pseudovirus panel (n = 15).
Assay [7] has as its target Env of the clade AE HIV-1 pseudoviruses of the cross-clade 162-pseudovirus panel (n = 10).
Assay [8] deals with HIV-1 Env of the clade AG pseudoviruses of the cross-clade 162-pseudovirus panel (n=10).
Assay [9] has as its target HIV-1 clade F pseudoviruses (Env) of the cross-clade 162-pseudovirus panel, n=15.
The target of assay [10] is HIV-1 Env of the clade F pseudoviruses of the cross-clade 162-pseudovirus panel (n=15).
Assay [11] addresses HIV-1 clade D pseudoviruses (Env) of the cross-clade 162-pseudovirus panel, n=25.
For assay [12], the target named is 162-pseudovirus panel representing all major circulating HIV-1 subtypes.
Assay [13] deals with HIV-1 clade A pseudoviruses (Env) of the cross-clade 162-pseudovirus panel, n=26.
The target in assay [14] is HIV-1 Env of the clade AE pseudoviruses of the cross-clade 162-pseudovirus panel (n=10).
For assay [15], the target named is HIV-1 pseudovirus panel of Table 52.
In assay [16] the target is HIV-1 Env of the clade B pseudoviruses of the cross-clade 162-pseudovirus panel (n=31).
In assay [17] the target is HIV-1 Env of the clade C pseudoviruses of the cross-clade 162-pseudovirus panel (n=27).
Assay [18] has as its target HIV-1 clade G pseudoviruses (Env) of the cross-clade 162-pseudovirus panel, n=15.
The target of assay [19] is HIV-1 Env of the clade G pseudoviruses of the cross-clade 162-pseudovirus panel (n=15).
The target of assay [20] is HIV-1 Env of the clade D pseudoviruses of the cross-clade 162-pseudovirus panel (n=25).
The target in assay [21] is All HIV-1 pseudoviruses (Env) of the cross-clade 162-pseudovirus panel, n=162.
Assay [22] deals with HIV-1 clade C pseudoviruses (Env) of the cross-clade 162-pseudovirus panel, n=27.
The target in assay [23] is HIV-1 clade B pseudoviruses (Env) of the cross-clade 162-pseudovirus panel, n=31.
Assay [24] addresses HIV-1 Env of the clade A pseudoviruses of the cross-clade 162-pseudovirus panel (n=26).

B1: PGT-141 (antibody, V domains shown)
VH: QVQLVQSGPEVKKPGSSVKVSCKASGNTFSKYDVHWVRQATGQGLEWVGWMSHEGDKTESAQRFKGRVTFTRDTSASTAYMELRGLTSDDTAIYYCTRGSKHRLRDYVLYDDYGLINYQEWNDYLEFLDVWGHGTAVTVSS
VL: DTVVTQSPLSLPVTPGEAASMSCSSTQSLRHSNGANYLAWYQHKPGQSPRLLIRLGSQRASGVPDRFSGSGSGTHFTLKISRVEAEDAAIYYCMQGLNRPWTFGKGTKLEIK
On to B1, for which the Median IC50 against viruses neutralized with an IC50 <50 µg/ml in [1] worked out at 0.33 µg/mL; in [2], 0.37 µg/mL; in assay [3], 0.22 µg/mL; in assay [4], 0.48 µg/mL; in assay [5] it was 0.24 µg/mL; in assay [6] it was 0.3 µg/mL. In [7], this molecule registered a Median IC50 against viruses neutralized with an IC50 <50 µg/ml of 0.01 µg/mL.

B2: PGT-144 (antibody, V domains shown)
VH: QVQLVQSGAEVKKPGSSVKVSCKASGNTFRKYDVHWVRQATGQGLEWVGWMSHEGDKTESAQRFKGRVSFTRDNSASTAYIELRGLTSDDTAIYYCTGGSKHRLRDYVLYDDYGLINQQEWNDYLEFLDVWGHGTAVTVSS
VL: DTVVTQSPLSLSVTPGEAASMSCTSTQSLRHSNGANYLAWYQHKPGQSPRLLIRLGSQRASGVPDRFSGSGSGTHFTLKISRVEADDAAIYYCMQGLNRPWTFGKGTKLEIK
Regarding B2, the Median IC50 against viruses neutralized with an IC50 <50 µg/ml stood at 0.85 µg/mL in [1]; 2.13 µg/mL in assay [2]; 2.81 µg/mL in assay [3]; 3.37 µg/mL in [4]; 0.51 µg/mL in assay [5]; 3.84 µg/mL in assay [6]. Also, the Median IC50 against viruses neutralized with an IC50 <50 µg/ml in assay [7] worked out at 0.1 µg/mL.

B3: PGT-143 (antibody, V domains shown)
VH: QVQLEQSGAEVKKPGSSVKVSCKASGNTFSKYDVHWVRQATGQGLEWVGWMSHEGDKTESAQRFKGRVTFTRDTSASTAYMELRGLTSDDTAIYYCTRGSKHRLRDYVLYDDYGLINYQEWNDYLEFLDVWGHGTAVTVSS
VL: DTVVTQSPLSLPVTPGEAASMSCTSTQSLRHSNGANYLAWYQHKPGQSPRLLIRLGSQRASGVPDRFSGSGSGTHFTLKISRVEPEDAAIYYCMQGLNRPWTFGKGTKLEIK
With B3, the Median IC50 against viruses neutralized with an IC50 <50 µg/ml in [1] amounted to 0.17 µg/mL; in assay [2], 0.28 µg/mL; in assay [3], 0.27 µg/mL; in assay [4], 0.39 µg/mL; in assay [5], 0.36 µg/mL; in assay [6], 0.21 µg/mL. In addition, in assay [7], the Median IC50 against viruses neutralized with an IC50 <50 µg/ml was found to be 0.02 µg/mL.

B4: PGT-142 (antibody, V domains shown)
VH: QVQLVQSGPEVKKPGSSVKVSCKASGNTFSKYDVHWVRQATGQGLEWVGWISHERDKTESAQRFKGRVTFTRDTSATTAYMELRGLTSDDTAIYYCTRGSKHRLRDYVLYDDYGLINYQEWNDYLEFLDVWGHGTAVTVSS
VL: DTVVTQSPLSLPVTPGEAASMSCSSTQSLRHSNGANYLAWYQHKPGQSPRLLIRLGSQRASGVPDRFSGSGSGTHFTLKISRVEAEDAAIYYCMQGLNRPWTFGKGTKLEIK
Consider B4, for which the Median IC50 against viruses neutralized with an IC50 <50 µg/ml in assay [1] was 0.09 µg/mL; in [2], 0.19 µg/mL; in assay [3], 0.25 µg/mL; in assay [4], 0.4 µg/mL; in [5], 0.22 µg/mL; in assay [6], 0.21 µg/mL. In assay [7], the Median IC50 against viruses neutralized with an IC50 <50 µg/ml was 0.01 µg/mL.

B5: PGT-145 (antibody, V domains shown)
VH: QVQLVQSGAEVKKPGSSVKVSCKASGNSFSNHDVHWVRQATGQGLEWMGWMSHEGDKTGLAQKFQGRVTITRDSGASTVYMELRGLTADDTAIYYCLTGSKHRLRDYFLYNEYGPNYEEWGDYLATLDVWGHGTAVTVSS
VL: EVVITQSPLFLPVTPGEAASLSCKCSHSLQHSTGANYLAWYLQRPGQTPRLLIHLATHRASGVPDRFSGSGSGTDFTLKISRVESDDVGTYYCMQGLHSPWTFGQGTKVEIK
Regarding B5, the Median IC50 against viruses neutralized with an IC50 <50 µg/ml in assay [1] was determined as 0.14 µg/mL; in [2] it was 1.07 µg/mL; in [3] it was 0.4 µg/mL; in [4] it was 0.09 µg/mL; in assay [5], 0.87 µg/mL; in [6], 0.11 µg/mL. For the same molecule, the Median IC50 against viruses neutralized with an IC50 <50 µg/ml in assay [7] was found to be 0.97 µg/mL.

B6: 5123_A06 (PGT-125) (antibody, V domains shown)
VH: QSQLQESGPRLVEASETLSLTCNVSGESTGACTYFWGWVRQAPGKGLEWIGSLSHCQSFWGSGWTFHNPSLKSRLTISLDTPKNQVFLKLTSLTAADTATYYCARFDGEVLVYNHWPKPAWVDLWGRGIPVTVSS
VL: QSALTQPPSASGSPGQSITISCNGTATNFVSWYQQFPDKAPKLIIFGVDKRPPGVPDRFSGSRSGTTASLTVSRLQTDDEAVYYCGSLVGNWDVIFGGGTTLTVL
Regarding B6, the Median IC50 (µg/ml) against viruses neutralized with an IC50 <50 µg/ml in [8] came out at 0.05 µg/mL; in [10], 0.37 µg/mL; in assay [12] it was 0.04 µg/mL; in [14] it was 0.22 µg/mL; in assay [16], 0.13 µg/mL; in [17] it was 0.18 µg/mL. The Median IC50 (µg/ml) against viruses neutralized with an IC50 <50 µg/ml in [19] is 0.05 µg/mL; in [20], 0.87 µg/mL; in assay [21], 0.78 µg/mL; in assay [24], 0.07 µg/mL. The Percent viruses neutralized with an IC50 <50 µg/ml in assay [9] was 20%; in assay [11], 28%; in assay [13], 54%; in assay [18], 7%; in [22] it was 26%; in assay [23] it was 58%. In addition, the Percent viruses neutralized, IC50 <0.1 µg/ml in [12] was determined as 32%. The Percent viruses neutralized, IC50 <1 µg/ml in assay [12] is 40%. The molecule further yielded a Percent viruses neutralized, IC50 <50 µg/ml in assay [12] of 52%. Further, the median IC50, neutralizing activity over the panel in assay [15] is 0.01 µg/mL.

B7: 5147_N06 (PGT-130) (antibody, V domains shown)
VH: QVQLQESGPGLVKPAETLSLTCSVSGESINTGHYYWGWVRQVPGKGLEWIGHIHYTTAVLHNPSLKSRLTIKIYTLRNQITLRLSNVTAADTAVYHCVRSGGDILYYYEWQKPHWFSPWGPGIHVTVSS
VL: QSALTQPPSASGSLGQSVTISCNGTSSDIGGWNFVSWYQQFPGRAPRLIIFEVNKRPSGVPGRFSGSKSGNSASLTVSGLQSDDEGQYFCSSLFGRWDVVFGGGTKLTVL
Turning to B7, the Median IC50 (µg/ml) against viruses neutralized with an IC50 <50 µg/ml stood at 4.84 µg/mL in assay [10]; 0.16 µg/mL in [12]; 0.08 µg/mL in assay [14]; 0.77 µg/mL in [16]; 2.67 µg/mL in assay [17]; 28.1 µg/mL in [19]. Further, the figures for the Median IC50 (µg/ml) against viruses neutralized with an IC50 <50 µg/ml in [20] and in assay [24] were 3.18 µg/mL and 4.99 µg/mL, respectively. The molecule further came in with a Percent viruses neutralized, IC50 <0.1 µg/ml in assay [12] of 23%. In [12], the Percent viruses neutralized, IC50 <1 µg/ml turned out to be 35%. In assay [12], this molecule displayed a Percent viruses neutralized, IC50 <50 µg/ml of 52%. The median IC50, neutralizing activity over the panel in assay [15] was determined as 0.03 µg/mL.
